# Measured values: article PMC9365693 (Nature, 2022)
# Experiment: Mobility-edited H(H)C ssNMR: membrane topology of lipid II-bound teixobactin
# Conditions: for Peak integral, Lipid peak / Peak integral, Water peak: integral values from topspin; for Total integral: lipid + water peak; for (%) exposure, Lipid: lipid peak / total integral; for (%) exposure, Lipid / (%) exposure, Water: Extended Data Fig. 8d; for (%) exposure, Water: water peak / total integral; for Integral [abs], I5 L: residue I5, lipid peak; for Integral [abs], I5 W: residue I5, water peak
# Text: T1rho trajectories were fit to single exponentials.
# Extended Data Fig. 8 The membrane topology of the complex. a) and b) show mobility-edited (‘T2-filtered’) ^1H(^1H)^13C ssNMR experiments[37] of ^13C,^15N-teixobactin bound to Lipid II. […] For each residue, peak areas were integrated using Topspin 4.06. Signals that were used for the integration are annotated. e) Membrane topology visualized with the ssNMR structure. Hydrophilic (in blue) and hydrophobic (brown) residues are sharply separated above and below the β-sheet, respectively. Note that the N-terminal Phe1 at the rim of the β-sheet has higher water accessibility, potentially because of fraying and mobility effects. f) Normalized contacts to water and lipid-tails, back-calculated over the MD simulation based on our ssNMR structure. g) Membrane topology using a different structure of the calculated ssNMR ensemble. As shown in Extended Data Fig. 9a, the despi-cycle is plastic and can point up towards the water phase, bringing End10 well-above the membrane-plane. Source data
substance,measurement,setting,value
teixobactin,"Peak integral, Lipid peak",residue En10,2427300000 abs
same,"Peak integral, Water peak",residue En10,10975000000 abs
same,Total integral,residue En10,13402300000 abs
same,"(%) exposure, Lipid",residue En10,0.1811%
same,"(%) exposure, Water",residue En10,0.8189%
same,"Peak integral, Lipid peak",residue F1,6219800000 abs
same,"Peak integral, Water peak",residue F1,11286000000 abs
same,Total integral,residue F1,17505800000 abs
same,"(%) exposure, Water",residue F1,0.6447%
same,"Peak integral, Lipid peak",residue I2,4889800000 abs
same,"Peak integral, Water peak",residue I2,2150800000 abs
same,Total integral,residue I2,7040600000 abs
same,"(%) exposure, Lipid",residue I2,0.6945%
same,"(%) exposure, Water",residue I2,0.3055%
same,"Peak integral, Water peak",residue I5 (avg),6133400000 abs
same,Total integral,residue I5 (avg),31269600000 abs
same,"(%) exposure, Lipid",residue I5 (avg),0.8039%
same,"(%) exposure, Water",residue I5 (avg),0.1961%
same,"Integral [abs], I5 L",first listed peak,14909000000 abs
same,"Integral [abs], I5 L",second listed peak,4352100000 abs
same,"Integral [abs], I5 L",third listed peak,5875100000 abs
same,"Integral [abs], I5 W",first listed peak,2103100000 abs
same,"Integral [abs], I5 W",second listed peak,1331800000 abs
same,"Integral [abs], I5 W",third listed peak,2698500000 abs
same,"Peak integral, Lipid peak",residue I6,3461100000 abs
same,"Peak integral, Water peak",residue I6,507120000 abs
same,Total integral,residue I6,3968220000 abs
same,"(%) exposure, Lipid",residue I6,0.8722%
same,"(%) exposure, Water",residue I6,0.1278%
